Pooled drug test results. Numbers come from NIAID ChemDB, via PubChem.

All rows: whole-cell or culture tests; organism: Candida albicans; read-out: MIC90

An empty or dashed field is not shown. MIC50, MIC90 and the like: level of inhibition, or share of isolates inhibited. Rows are shuffled and stem from different studies.

C[C@H]1[C@H](O)[C@@H](C)/C=C/C=C/C=C/C=C/C=C/C=C/C=C/[C@H](O[C@@H]2O[C@H](C)[C@@H](O)[C@H](N)[C@@H]2O)C[C@@H]2O[C@](O)(C[C@@H](O)C[C@@H](O)CC[C@H](O)[C@@H](O)C[C@@H](O)CC(=O)O[C@H]1C)C[C@H](O)[C@H]2C(=O)O ; strain: 16 isolates fluconazole-susceptible ; result: 0.25 µg/mL
COc1ccccc1C1NC(c2ccccc2OC)C2(C)CCCC1/C2=N\O ; result: >128 µg/mL
C[C@@H](c1nc(-c2ccc(C#N)cc2)cs1)[C@](O)(Cn1cnnc1)c1ccc(F)cc1F ; strain: 660 isolates ; result: 0.03 µg/mL
C=CCSS(=O)CC=C ; strain: Clinical Isolate 3071 ; read by: broth dilution ; result: 6.25 µg/mL
Clc1ccc(C(Cn2ccnc2)OCc2csc3c(Cl)cccc23)c(Cl)c1 ; strain: 63 isolates ; read by: absorbance ; setting: 48 h ; result: 2 µg/mL
Clc1cc(Cl)c2c(c1)CCc1ccccc1C2n1ccnc1 ; strain: 35 isolates ; result: 0.5 µg/mL
C=C=CCN1C[C@H](OC[C@@]23C[C@@H]4[C@H](C)CC[C@H]4[C@@]4(C=O)C[C@@H]2CC(C(C)C)[C@@]34C(=O)O)O[C@H](C)C1 ; strain: 16 isolates ; result: 0.03 µg/mL
FC(F)(F)c1ccc(OC(CCn2ccnc2)c2ccccc2)cc1 ; strain: 20 strains ; result: 128 µg/mL
CCCCCOc1ccc(-c2ccc(-c3ccc(C(=O)N[C@H]4C[C@@H](O)[C@@H](O)NC(=O)[C@@H]5[C@@H](O)[C@@H](C)CN5C(=O)[C@H]([C@H](C)O)NC(=O)[C@H]([C@H](O)[C@@H](O)c5ccc(O)cc5)NC(=O)[C@@H]5C[C@@H](O)CN5C(=O)[C@H]([C@H](C)O)NC4=O)cc3)cc2)cc1 ; strain: 42 isolates ; result: 0.0078 µg/mL
OC(Cn1cncn1)(Cn1cncn1)c1ccc(F)cc1F ; strain: Isolate HR-Micro ; setting: 48 h ; result: ≥100 µg/mL
CCC(c1ccc(OC)cc1)C(c1ccc(OC)cc1)n1cncn1 ; strain: 28 strains ; result: 256 µg/mL
CC(C)C1C[C@H]2C[C@]3(C=O)[C@@H]4CC[C@@H](C)[C@H]4C[C@@]2(CO[C@H]2CN(C4CC4)C[C@@H](C)O2)[C@]13C(=O)O ; strain: 16 isolates/fluconazole resistant ; result: 0.06 µg/mL
CC(C)C(CCC(C)C1CC[C@@]2(C)C3=C(CCC12C)C1(C)CC[C@H](O)C(C)(C)C1CC3)NC1CCCCC1 ; strain: A.10231 ; result: 50 µg/mL
IC(I)=C(I)CC1N=CN=N1 ; strain: 13 strains ; result: 0.39 µg/mL
CCC(C)n1ncn(-c2ccc(N3CCN(c4ccc(OC[C@H]5CO[C@](Cn6cncn6)(c6ccc(Cl)cc6Cl)O5)cc4)CC3)cc2)c1=O ; strain: 19 strains ; result: 1 µg/mL
CCC(c1ccc(OC)cc1)C(c1ccc(OC)cc1)n1ccnc1 ; strain: 28 strains ; result: >256 µg/mL
C=CCc1ccc(OC)c(OC)c1 ; strain: 177 ; read by: turbidity ; result: 345 µg/mL
CC(C)C(N)CCC(C)C1CC[C@@]2(C)C3=C(CCC12C)C1(C)CC[C@H](O)C(C)(C)C1CC3 ; strain: B02630 ; result: 100 µg/mL
COc1ccc(CC(c2ccc(OC)cc2)n2cncn2)cc1 ; strain: 28 strains ; result: >256 µg/mL
CC[C@@H]([C@H](C)O)n1ncn(-c2ccc(N3CCN(c4ccc(OC[C@@H]5CO[C@@](Cn6cncn6)(c6ccc(F)cc6F)C5)cc4)CC3)cc2)c1=O ; strain: 10 strains (fluconazole-resistant) ; result: 1 µg/mL
CCC(C)n1ncn(-c2ccc(N3CCN(c4ccc(OC[C@H]5CO[C@](Cn6cncn6)(c6ccc(Cl)cc6Cl)O5)cc4)CC3)cc2)c1=O ; strain: 30 isolates ; result: 1 µg/mL
COc1ccc(C(Cc2ccc(Cl)cc2)n2ccnc2)cc1 ; strain: 28 strains ; result: 16 µg/mL
CC(C)C(CCC(C)C1CC[C@@]2(C)C3=C(CCC12C)C1(C)CC[C@H](O)C(C)(C)C1CC3)SCc1ccccc1 ; strain: A.10231 ; result: 50 µg/mL
COc1ccc(CC(c2ccc(OC)cc2)n2cnnc2)cc1 ; strain: 28 strains ; result: 256 µg/mL
CCC(C)n1ncn(-c2ccc(N3CCN(c4ccc(OC[C@H]5CO[C@](Cn6cncn6)(c6ccc(Cl)cc6Cl)O5)cc4)CC3)cc2)c1=O ; strain: 34 isolates ; result: 0.13 µg/mL
CC(=O)OCC1C=C(c2ccc(Cl)c(Cl)c2)C(=O)O1 ; strain: 16 isolates fluconazole-susceptible ; result: 2 µg/mL
CCC(c1ccc(OC)cc1)C(c1ccc(OC)cc1)n1cnnc1 ; strain: 28 strains ; result: >256 µg/mL
CCC(C)N1N=CN(c2ccc(N3CCN(c4ccc(OC[C@H]5CO[C@](Cn6cncn6)(c6ccc(F)cc6F)O5)cc4)CC3)cc2)C1O ; strain: 10 strains ; result: 0.03 µg/mL
COc1ccc(C(C(Cc2ccc(Cl)cc2Cl)c2ccc(Cl)cc2)n2ccnc2)cc1 ; strain: 28 strains ; result: 64 µg/mL
Clc1ccc(C(CCn2ccnc2)Oc2ccc(Cl)cc2Cl)cc1 ; strain: 20 strains ; result: 4 µg/mL
CC[C@@H](c1ccc(Cl)cc1)[C@@H](c1ccc(OC)cc1)n1cnnc1 ; strain: 28 strains ; result: 256 µg/mL
CC(C)C(N)CCC(C)C1CCC2C3CC=C4C[C@@H](O)CCC4(C)C3CCC12C ; strain: IFO. 1385 ; result: 0.39 µg/mL
CCC(c1ccc(Cl)cc1)C(c1ccc(OC)cc1)n1cncn1 ; strain: 28 strains ; result: >256 µg/mL
COc1ccc(CN2C[C@H](OC[C@@]34C[C@@H]5[C@H](C)CC[C@H]5[C@@]5(C=O)C[C@@H]3CC(C(C)C)[C@@]45C(=O)O)O[C@H](C)C2)cc1 ; strain: 16 isolates/fluconazole resistant ; result: 0.002 µg/mL

For reference, 2 entries again:

SMILES | strain | read by | setting | result
Clc1ccc(C(Cn2ccnc2)OCc2csc3c(Cl)cccc23)c(Cl)c1 | 63 isolates | absorbance | 48 h | 2 µg/mL
CC[C@@H](c1ccc(Cl)cc1)[C@@H](c1ccc(OC)cc1)n1cnnc1 | 28 strains |  |  | 256 µg/mL